The assay relates to Influenza A virus. The experiment in a line: Antiviral activity against influenza A virus A/Vietnam/1203/2004 x A/PR/8/34 (H5N1) harboring recombinant NS1 infected in MDCK cells assessed as reduction in virus-induced cytopathic effect measured on day 5 by Celltiter-Glo luminescence assay. In general terms: Cytopathic effects are the visible damage that an infection or toxin causes in cultured cells.

A value given as a limit tells only on which side of the number the result lay.

Take `COc1cc(-c2ccnc3c2c(C)nn3-c2ccc(C(F)(F)F)cc2)ccc1O`: the concentration giving a half-maximal response (EC50) (usually the midpoint of the concentration-response curve) is more than 50 µM.

On to `COc1cc(-c2c(C#N)c(N)nc3c2c(C)nn3-c2ccc(F)cc2)ccc1O`, for which the EC90 (as a rule, the concentration at which the effect reaches the 90% level) was 9.9 µM.

The record behind these values is ChEMBL document CHEMBL4316619 (Bioorg Med Chem Lett, 2019).
